Results published in PMC4766503, “A novel peptide with potent and broad-spectrum antiviral activities against multiple respiratory viruses” (Scientific Reports, 2016).

Tests used:
MDCK cells = settings: 24 h
H1N1 virus = settings: 1 h

CC[C@H](C)[C@H](N)C(=O)N[C@H](C(=O)N[C@@H](CC(N)=O)C(=O)N[C@@H](CC(N)=O)C(=O)N1CCC[C@H]1C(=O)N[C@H](C(=O)N[C@H](C(=O)N[C@H]1CSSC[C@@H]2NC(=O)[C@H](CCCNC(=N)N)NC(=O)[C@H](C(C)C)NC(=O)[C@H](CCCCN)NC(=O)[C@H](Cc3ccccc3)NC(=O)[C@H](Cc3c[nH]cn3)NC(=O)CNC(=O)[C@@H]3CSSC[C@H](NC(=O)[C@H]([C@@H](C)CC)NC(=O)[C@H](C)NC(=O)CNC(=O)[C@H](CC(N)=O)NC(=O)[C@H]([C@@H](C)O)NC(=O)[C@H](CCSC)NC1=O)C(=O)N[C@@H](Cc1c[nH]c4ccccc14)C(=O)NCC(=O)N1CCC[C@H]1C(=O)N[C@@H](CSSC[C@@H](C(=O)N[C@@H](CCCCN)C(=O)N[C@H](C(=O)N[C@@H](CCCNC(=N)N)C(=O)O)[C@@H](C)CC)NC2=O)C(=O)N1CCC[C@H]1C(=O)N[C@@H]([C@@H](C)O)C(=O)N[C@@H](C)C(=O)N[C@@H](Cc1ccccc1)C(=O)N[C@@H](CCCNC(=N)N)C(=O)N[C@@H](CCC(N)=O)C(=O)N[C@@H]([C@@H](C)CC)C(=O)NCC(=O)N[C@@H](CC(N)=O)C(=O)N3)[C@@H](C)O)[C@@H](C)CC)[C@@H](C)CC [smBD4, reference compound]
50% toxic concentration (TC50) (MDCK cells): 280 µg/mL | 50% inhibitory concentration (IC50) against H1N1 (H1N1 virus): 3.2 µg/mL
